Measurements published in paper PMC4594927 (PLoS ONE, 2015).
Values after ≈ are worked out from the molar mass of the structure shown. Read-outs that look alike come from different tables or passages of the source.

Amino acid sequences for entries named in this document (tags omitted).
UniProt Q8T6T2, whole entry: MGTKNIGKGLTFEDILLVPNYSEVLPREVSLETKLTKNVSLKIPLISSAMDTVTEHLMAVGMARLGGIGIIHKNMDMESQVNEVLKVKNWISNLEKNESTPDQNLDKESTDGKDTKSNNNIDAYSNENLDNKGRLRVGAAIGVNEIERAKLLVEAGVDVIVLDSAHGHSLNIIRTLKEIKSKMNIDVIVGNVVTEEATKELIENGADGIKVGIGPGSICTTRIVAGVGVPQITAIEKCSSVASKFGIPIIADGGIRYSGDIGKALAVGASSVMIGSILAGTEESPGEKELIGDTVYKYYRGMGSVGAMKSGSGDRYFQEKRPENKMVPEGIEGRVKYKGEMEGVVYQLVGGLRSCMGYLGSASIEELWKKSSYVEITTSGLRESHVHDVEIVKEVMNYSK

Legend:
CpIMPDH [1] = target: T1, CpIMPDH (Cryptosporidium parvum, UniProt Q8T6T2); conditions: cited from earlier work
BaIMPDH [2] = target: T2, BaIMPDH (Bacillus anthracis, UniProt A0A6L8P2U9); conditions: cited from earlier work
BaIMPDH [3] = target: T2, BaIMPDH; experiment: Inhibition of BaIMPDH; format: biochemical
CpIMPDH [4] = target: T1, CpIMPDH; experiment: Inhibition of CpIMPDH; conditions: read-out: CpIMPDH Kiapp; S8 Table; no reference mark; Q77 single determination
B. anthracis [5] = conditions: S8 Table; cited from earlier work
MtbIMPDH2ΔCBS = MtbIMPDH2ΔCBS (Mycobacterium tuberculosis, UniProt P9WKI7, DEL126-250/R252G); experiment: Inhibition of MtbIMPDH2ΔCBS (Ki,app); format: biochemical; conditions: read-out: K i,app; IMP 0.5 mM, NAD+ […]; average and SD of three independent determinations unless noted (P32 n = 1; Q22, Q36 n = 2)
B. anthracis [6] = experiment: Antibacterial activity against B. anthracis (MIC); format: cell-based, Bacillus anthracis; conditions: comparison of MIC, S8 Table
[7] = read-out: Ki,app BaIMPDH, S2 Table, footnote b
[8] = read-out: Ki,app BaIMPDH, S3 Table, BaIMPDH data from ref 37
[9] = read-out: B. anthracis Ki,app, S8 Table, no reference mark
[10] = read-out: Ki,app BaIMPDH, S5 Table, no reference mark
[11] = read-out: Ki,app BaIMPDH, S1 Table, column head footnote c, A68 single determination
[12] = read-out: CpIMPDH Kiapp, S8 Table, footnote b
[13] = read-out: B. anthracis Ki,app, S8 Table, footnote c

C[C@H](Oc1ccnc2ccccc12)c1cn(-c2ccc(C#N)c(Cl)c2)nn1
Ki (CpIMPDH [1]): 60 nM | Ki (BaIMPDH [2]; [7]): 3700 nM

O=C(Cn1c(-c2nccs2)nc2ccccc21)Nc1ccc2ccccc2c1
Ki (BaIMPDH [2]; [8]): 15 nM

O=C(Cn1c(-c2nccs2)nc2ccccc21)Nc1ccc(Cl)c(Cl)c1
Ki (BaIMPDH [2]; [8]): 95 nM

C[C@H](Oc1cccc(Cl)c1Cl)C(=O)Nc1ccc2oc(-c3ccncc3)nc2c1
Ki (BaIMPDH [3]; [9]): 10 nM | M. tuberculosis MIC (Mtb strain H37Rv): 9.4 µM | MIC in 7H9 media + Gua (Mtb strain H37Rv): 28 ± 9 µM | MIC in 7H9 media - Gua (Mtb strain H37Rv): 15.8 ± 5.5 µM (≈ 6.77 µg/mL) | MIC in GAST media + Gua (Mtb strain H37Rv): 37 µM | MIC in GAST media - Gua (Mtb strain H37Rv): 9.4 ± 3.0 µM (≈ 4.03 µg/mL) | Ki (CpIMPDH [4]): 1.2 nM

C=C(C)c1cccc(C(C)(C)NC(=O)Nc2ccc3[nH]c(=O)[nH]c3c2)c1
Ki (BaIMPDH [3]; [10]): 3000 nM

CC(Oc1ccnc2ccccc12)c1cn(-c2ccc(C#N)c(Cl)c2)nn1 (centres unmarked)
Ki (BaIMPDH [3]; read-out: Ki,app BaIMPDH, S2 Table, single determination): 400 nM | Ki (CpIMPDH [1]): 40 nM

COc1ccc(OC(C)C(=O)Nc2ccc3oc(-c4ccncc4)nc3c2)cc1 (centres unmarked)
Ki (BaIMPDH [3]; [9]): 37 nM | M. tuberculosis MIC (Mtb strain H37Rv): 5.3 µM | MIC in 7H9 media + Gua (Mtb strain H37Rv): 21 ± 4 µM | MIC in 7H9 media - Gua (Mtb strain H37Rv): 10.4 ± 1.8 µM (≈ 4.05 µg/mL) | MIC in GAST media + Gua (Mtb strain H37Rv): 24 ± 16 µM | MIC in GAST media - Gua (Mtb strain H37Rv): 5.3 ± 0.9 µM (≈ 2.06 µg/mL) | B. anthracis MIC (B. anthracis [5]): >50 µM | Ki (CpIMPDH [4]): 28 nM

Clc1ccc(-n2cc(COc3ccnc4ccccc34)nn2)cc1Cl
Ki (CpIMPDH [1]): 20 nM | Ki (BaIMPDH [2]; [7]): 80 nM

CC(Oc1cccc2ccccc12)C(=O)Nc1ccc(C(F)(F)F)cc1 (centres unmarked)
Ki (CpIMPDH [1]): 1500 nM | Ki (BaIMPDH [2]; [11]): 650 nM

O=C(Cn1c(-c2nccs2)nc2ccccc21)Nc1ccc(Cl)cc1
Ki (BaIMPDH [2]; [8]): 70 nM

O=C(Cc1n[nH]c(=O)c2ccccc12)Nc1ccc(Cl)cc1
Ki (CpIMPDH [1]): 230 nM | Ki (BaIMPDH [2]; read-out: Ki,app BaIMPDH, S4 Table, footnote b): 300 nM

CC(C)C(Oc1cccc2ccccc12)C(=O)Nc1ccc(Br)cc1 (centres unmarked)
Ki (CpIMPDH [1]): 400 nM | Ki (BaIMPDH [2]; [11]): 138 nM

CC(Oc1ccc(Cl)cc1Cl)C(=O)Nc1ccc2oc(-c3ccccn3)nc2c1 (centres unmarked)
Ki (MtbIMPDH2ΔCBS): 2000 nM | M. tuberculosis MIC (Mtb strain H37Rv): 19.8 µM | MIC in 7H9 media + Gua (Mtb strain H37Rv): 50 ± 40 µM | MIC in 7H9 media - Gua (Mtb strain H37Rv): 25.3 ± 8.3 µM (≈ 10.8 µg/mL) | MIC in GAST media + Gua (Mtb strain H37Rv): 25 ± 12 µM | MIC in GAST media - Gua (Mtb strain H37Rv): 19.8 ± 14.9 µM (≈ 8.48 µg/mL) | Ki (CpIMPDH [1]; [12]): 210 nM

COc1ccccc1NC(=O)Cc1n[nH]c(=O)c2ccccc12
Ki (CpIMPDH [1]): > 5000 nM

CC(=NO)c1cccc(C(C)(C)NC(=O)Nc2ccc(Cl)c(C(N)=O)c2)c1
Ki (MtbIMPDH2ΔCBS): 158 nM | M. tuberculosis MIC (Mtb strain H37Rv): 11.4 µM | MIC in 7H9 media + Gua (Mtb strain H37Rv): ≥38 µM | MIC in 7H9 media - Gua (Mtb strain H37Rv): 27.2 ± 15.7 µM (≈ 10.6 µg/mL) | MIC in GAST media + Gua (Mtb strain H37Rv): ≥40 µM | MIC in GAST media - Gua (Mtb strain H37Rv): 11.4 ± 5.3 µM (≈ 4.43 µg/mL) | Ki (CpIMPDH [1]; read-out: CpIMPDH Kiapp, S8 Table, footnote a): 5 nM | B. anthracis MIC (B. anthracis [5]): 25 µM

CC(=NO)c1cccc(C(C)(C)NC(=O)Nc2ccc(Cl)c(C(=O)N3CCOCC3)c2)c1
Ki (MtbIMPDH2ΔCBS): 37 nM | fold more effective against B. anthracis than against Mtb (B. anthracis [6]): 15-28 fold | M. tuberculosis MIC (Mtb strain H37Rv): 14.9 µM | MIC in 7H9 media + Gua (Mtb strain H37Rv): 44 ± 7 µM | MIC in 7H9 media - Gua (Mtb strain H37Rv): 28.0 ± 9.0 µM (≈ 12.9 µg/mL) | MIC in GAST media + Gua (Mtb strain H37Rv): >50 µM | MIC in GAST media - Gua (Mtb strain H37Rv): 14.9 ± 10.0 µM (≈ 6.84 µg/mL) | Ki (CpIMPDH [1]; read-out: CpIMPDH Kiapp, S8 Table, footnote c): 30 nM | Ki (BaIMPDH [2]; [13]): 170 nM | B. anthracis MIC (B. anthracis [5]): 1 µM

CC(Nc1cccc(Cl)c1Cl)C(=O)Nc1ccc2oc(-c3ccncc3)nc2c1 (racemic)
M. tuberculosis MIC (Mtb strain H37Rv): 14.5 µM | MIC in 7H9 media + Gua (Mtb strain H37Rv): 19 ± 0 µM | MIC in 7H9 media - Gua (Mtb strain H37Rv): 14.5 ± 4.8 µM (≈ 6.2 µg/mL) | MIC in GAST media + Gua (Mtb strain H37Rv): >50 µM | MIC in GAST media - Gua (Mtb strain H37Rv): 14.5 ± 4.0 µM (≈ 6.2 µg/mL) | Ki (CpIMPDH [1]; [12]): 2 nM | Ki (BaIMPDH [2]; [13]): 13 nM

CC(Oc1cccc2ccccc12)C(=O)Nc1ccc(Cl)cc1 (centres unmarked)
Ki (CpIMPDH [1]): 1000 nM

C[C@@H](Oc1ccnc2ccccc12)c1cn(-c2ccc(C#N)c(Cl)c2)nn1
Ki (CpIMPDH [1]): 31 nM | Ki (BaIMPDH [2]; [7]): 340 nM

COc1cccc(NC(=O)Cc2n[nH]c(=O)c3ccccc23)c1
Ki (BaIMPDH [3]; read-out: Ki,app BaIMPDH, S4 Table, no reference mark, footnote c = single determination (D50 unmarked)): 11000 nM | Ki (CpIMPDH [1]): > 5000 nM

CC(Oc1cccc2c1ccc[n+]2[O-])c1cn(-c2ccc(Cl)cc2)nn1 (centres unmarked)
Ki (CpIMPDH [1]): 44 nM | Ki (BaIMPDH [2]; [7]): 90 nM

CC(=NO)c1cccc(C(C)(C)NC(=O)Nc2ccc(Br)cc2)c1
Ki (CpIMPDH [1]; read-out: Ki,app CpIMPDH, S5 Table, footnote b): 9 nM

C[C@@H](Oc1ccnc2ccccc12)c1cn(-c2ccc(Cl)c(Cl)c2)nn1
Ki (CpIMPDH [1]): 9 nM | Ki (BaIMPDH [2]; [7]): 20 nM

CC(Oc1ccnc2ccccc12)C(=O)Nc1ccc(Cl)cc1 (centres unmarked)
Ki (CpIMPDH [1]): 660 nM | Ki (BaIMPDH [2]; [11]): 1000 nM

C=C(C)c1cccc(C(C)(C)NC(=O)Nc2ccc3c(c2)OCCO3)c1
Ki (BaIMPDH [3]; [10]): 140 nM
